Sequences of proteins named here, by UniProt entry; tags and fusion partners are left off.
UniProt P08659, whole entry: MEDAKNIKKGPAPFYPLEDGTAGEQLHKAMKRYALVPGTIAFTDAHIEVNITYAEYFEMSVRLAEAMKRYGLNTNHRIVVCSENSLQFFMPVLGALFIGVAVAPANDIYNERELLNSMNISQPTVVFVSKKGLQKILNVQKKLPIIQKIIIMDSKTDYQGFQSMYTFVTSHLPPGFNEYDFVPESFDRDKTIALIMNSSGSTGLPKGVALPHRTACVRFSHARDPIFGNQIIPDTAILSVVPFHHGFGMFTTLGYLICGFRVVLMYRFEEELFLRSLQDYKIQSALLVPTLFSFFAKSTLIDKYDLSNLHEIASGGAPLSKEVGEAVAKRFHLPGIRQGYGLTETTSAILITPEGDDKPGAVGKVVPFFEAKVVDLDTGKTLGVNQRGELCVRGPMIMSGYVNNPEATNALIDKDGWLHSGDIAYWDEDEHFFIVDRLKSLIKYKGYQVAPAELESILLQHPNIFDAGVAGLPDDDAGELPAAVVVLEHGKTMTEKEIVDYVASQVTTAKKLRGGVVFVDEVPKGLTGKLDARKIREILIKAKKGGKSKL

In patent publication US10745365B2, “Luminogenic and fluorogenic compounds and methods to detect molecules or conditions” (Promega Corporation, priority 2005, dated 2020):

Target: QuantiLum Luciferase (firefly luciferase) (Photinus pyralis, UniProt P08659)
Experiment: pH dependence of firefly luciferase signal with luciferin or 5′-fluoroluciferin
Assay type: biochemical
Design: purchased Promega Corporation El 70

Absolute Luminescence (pH 7.673, Tricine): 1,041,115 RLU
Relative Luminescence (% of 8.3 Luciferin) (pH 7.673, Tricine): 71%
Absolute Luminescence (pH 7.883, Tricine): 1,254,769 RLU
Relative Luminescence (% of 8.3 Luciferin) (pH 7.883, Tricine): 86%
Absolute Luminescence (pH 8.100, Tricine): 1,422,936 RLU
Relative Luminescence (% of 8.3 Luciferin) (pH 8.100, Tricine): 97%
Absolute Luminescence (pH 8.327, Tricine): 1,463,179 RLU
Relative Luminescence (% of 8.3 Luciferin) (pH 8.327, Tricine): 100%
SMILES: O=C(O)[C@H]1CSC(c2nc3ccc(O)cc3s2)=N1 [luciferin, (4S)-4,5-dihydro-2-(6-hydroxybenzothiazolyl)-4-thiazolecarboxylic acid, reference compound]
